The values that follow come from ChEMBL document CHEMBL4311942, “Design of Trp-Rich Dodecapeptides with Broad-Spectrum Antimicrobial Potency and Membrane-Disruptive Mechanism” (J Med Chem, 2019).

The experiment relates to Escherichia coli. Description: Resistance index, ratio of MIC for antibacterial activity against Escherichia coli ATCC 25922 treated over 35 serial passage by sequential passaging method to MIC for antibacterial activity against Escherichia coli ATCC 25922 incubated for 18 to 24 hrs by broth microdilution method. The class given is functional. (In broth dilution the organism is exposed to a series of concentrations in liquid medium.)

Consider `CC(C)C[C@H](NC(=O)[C@H](CCCNC(=N)N)NC(=O)[C@H](Cc1c[nH]c2ccccc12)NC(=O)[C@H](CCCNC(=N)N)NC(=O)[C@@H](NC(=O)[C@H](CCCCN)NC(=O)[C@H](Cc1c[nH]c2ccccc12)NC(=O)[C@H](CCCNC(=N)N)NC(=O)[C@H](CC(C)C)NC(=O)[C@H](CCCNC(=N)N)NC(=O)[C@@H](N)Cc1c[nH]c2ccccc12)[C@@H](C)O)C(=O)N[C@@H](CCCCN)C(N)=O`, for which the Ratio is on record as 1 - 2.
